Assay results taken from US20190359693A1, “Binding molecules directed against influenza hemagglutinin and uses thereof” (Janssen / Centocor, published 2019).
Changes are numbered by the printed parent chain.

B1: SD3041 (VHH)
VHH: EVQLVESGGGLVQPGGSLRLSCAASGRTLSIYSMSWFRQAPGKEREFVSAIGWNSGRTYYADSVKGRFTISRDNSKNTLYLQMNSLRAEDTAVYYCAAAKGPLRLSSQADYWGQGTQVTVSS
B2: SD3046 (VHH)
VHH: B1 VHH with P14A, A50T
B3: SD3043 (VHH)
VHH: B1 VHH with S49A, A50T
B4: SD3042 (VHH)
VHH: B1 VHH with A50T
B5: SD3045 (VHH)
VHH: B1 VHH with P14A
B6: SD3024 (VHH)
VHH: EVQLLESGGGLVQPGGSLRLSCAASGRTYAMSWFRQAPGKEREFVSHINALGTRTYYADSVKGRFTISRDNSKNTLYLQMNSLRAEDTAVYYCTAQGQWRAAPVAVAAEYEFWGQGTQVTVSS
B7: SD3094 (VHH)
VHH: B6 VHH with S32G, S46A, Q118L
B8: SD3027 (VHH)
VHH: B6 VHH with P14A, H47A, A85P
B9: SD3097 (VHH)
VHH: B6 VHH with S32G, S46A, H47A, Q118L
B10: SD3026 (VHH)
VHH: B6 VHH with H47A
B11: SD3098 (VHH)
VHH: B6 VHH with S32G, S46A, H47A, A85P, Q118L
B12: SD3025 (VHH)
VHH: B6 VHH with S46A
B13: SD1046 (VHH)
VHH: EVQLVESGGGLVQAGDSLRISCAASGRTLSIYSMGWFRQAPGKEREFVATIGWNSGRTFYPDSLKGRFTISRDNARNTLYLQMNNLRPEDTAVYYCAAAKGPLRLSSQADYWGQGTQVTVSS
B14: SD3044 (VHH)
VHH: B1 VHH with A50T, S75A, K76R
B15: SD3047 (VHH)
VHH: B1 VHH with P14A, S49A, A50T
B16: SD3048 (VHH)
VHH: B1 VHH with P14A, A50T, S75A, K76R
B17: SD3067 (VHH)
VHH: B1 VHH with S35G, S49A, A50T, Y59F, A61P, V64L, Q117L
B18: SD1036 (VHH)
VHH: EVQLVESGGGLVQAGGSLKLSCAASGRTYAMGWFRQAPGKEREFVAHINALGTRTYYSDSVKGRFTISRDNAKNTEYLEMNNLKPEDTAVYYCTAQGQWRAAPVAVAAEYEFWGQGTQVTVSS
B19: SD3095 (VHH)
VHH: B6 VHH with S32G, S46A, A85P, Q118L
B20: SD3023 (VHH)
VHH: B6 VHH with P14A, A85P
B21: SD3096 (VHH)
VHH: B6 VHH with S32G, S46A, L76V, A85P, Q118L
B22: SD3028 (VHH)
VHH: B6 VHH with P14A, S46A, A85P
B23: SD3013 (VHH)
VHH: EVQLVESGGGVVQPGGSLRLSCAASISIFDIYAMDWYRQAPGKQRELVATSFRDGSTYYADSVKGRFTISRDNSKNTLYLQMNSLRAEDTAVYLCHVSLYRDPLGVAGGMGVYWGKGALVTVSS
B24: SD3030 (VHH)
VHH: B23 VHH with V11L, A24V, E46D, Y58N, S74A, R86K, A87P, M110I
B25: SD3017 (VHH)
VHH: B23 VHH with D35H
B26: SD3078 (VHH)
VHH: B23 VHH with A49S, T50V, L94Y, M110L, K116Q, A118T
B27: SD3031 (VHH)
VHH: B23 VHH with V11L, A24V, E46D, Y58N, S74A, R86K, A87P, M110V
B28: SD3079 (VHH)
VHH: B23 VHH with T50V, L94Y, M110L, K116Q, A118T
B29: SD3029 (VHH)
VHH: B23 VHH with V11L, A24V, E46D, Y58N, S74A, R86K, A87P, M110L
B30: SD3018 (VHH)
VHH: B23 VHH with D35H, T50V
B31: SD3014 (VHH)
VHH: B23 VHH with T50V
B32: SD3089 (VHH)
VHH: B23 VHH with D35H, A49S, T50V, L94Y, M110L, K116Q, A118T
B33: SD3022 (VHH)
VHH: B23 VHH with T50V, A87P, M110I
B34: SD3019 (VHH)
VHH: B23 VHH with D35H, A49S, T50V
B35: SD3080 (VHH)
VHH: B23 VHH with T50V, A87P, L94Y, M110L, K116Q, A118T

The binders below were run against hemagglutinin (HA) of influenza A/Hong Kong/1/68-ma (H3N2) (influenza A virus A/Hong Kong/1/68-ma …) (assay: cell-based or functional assay).

| Binder | VNA IC50 [nM] |
| --- | --- |
| B1 | 858 |
| B2 | 253 |
| B3 | 466 |
| B4 | 253 |
| B5 | 632 |
| B6 | 206 |
| B7 | 20 |
| B8 | 30 |
| B9 | 32 |
| B10 | 36 |
| B11 | 20 |
| B12 | 280 |
| B13 | 26 |
| B14 | 253 |
| B15 | 253 |
| B16 | 343 |
| B17 | 8 |
| B18 | 78 |
| B19 | 26 |
| B20 | 206 |
| B21 | 20 |
| B22 | 280 |

These binders were tested against hemagglutinin (HA) of influenza A/Puerto Rico/8/34-ma (H1N1) (influenza A virus A/Puerto Rico/8/34-ma …) (assay: cell-based or functional assay).

| Binder | VNA IC50 [nM] |
| --- | --- |
| B23 | 8 |
| B24 | 6 |
| B25 | 6 |
| B26 | 3 |
| B27 | 15 |
| B28 | 3 |
| B29 | 2 |
| B30 | 3 |
| B31 | 4 |
| B32 | 2 |
| B33 | 6 |
| B34 | 6 |
| B35 | 3 |
